The exact form of at least one protein or probe is not confirmed. At least one verdict rests on a figure or table, not on a statement of the authors.
Tests used:
[1] = molecular target: JEV NS5 (Japanese encephalitis virus) (UniProt P27395); assay: EMSA / SDS-PAGE cross-linking; settings: C5, C10, C11 = 5-(ethoxysquaramate-linked) cytidine (CESQ); recombinant protein; label: radioactive; letters put together from the description
[2] = molecular target: YFV NS5 (Yellow fever virus) (UniProt P03314); assay: EMSA / SDS-PAGE cross-linking; settings: C5, C10, C11 = 5-(ethoxysquaramate-linked) cytidine (CESQ); recombinant protein; label: radioactive; letters put together from the description

Chains of the proteins cited; added tags and fusions are not shown. Residues count along the entry.
UniProt P27395, 2528-3432: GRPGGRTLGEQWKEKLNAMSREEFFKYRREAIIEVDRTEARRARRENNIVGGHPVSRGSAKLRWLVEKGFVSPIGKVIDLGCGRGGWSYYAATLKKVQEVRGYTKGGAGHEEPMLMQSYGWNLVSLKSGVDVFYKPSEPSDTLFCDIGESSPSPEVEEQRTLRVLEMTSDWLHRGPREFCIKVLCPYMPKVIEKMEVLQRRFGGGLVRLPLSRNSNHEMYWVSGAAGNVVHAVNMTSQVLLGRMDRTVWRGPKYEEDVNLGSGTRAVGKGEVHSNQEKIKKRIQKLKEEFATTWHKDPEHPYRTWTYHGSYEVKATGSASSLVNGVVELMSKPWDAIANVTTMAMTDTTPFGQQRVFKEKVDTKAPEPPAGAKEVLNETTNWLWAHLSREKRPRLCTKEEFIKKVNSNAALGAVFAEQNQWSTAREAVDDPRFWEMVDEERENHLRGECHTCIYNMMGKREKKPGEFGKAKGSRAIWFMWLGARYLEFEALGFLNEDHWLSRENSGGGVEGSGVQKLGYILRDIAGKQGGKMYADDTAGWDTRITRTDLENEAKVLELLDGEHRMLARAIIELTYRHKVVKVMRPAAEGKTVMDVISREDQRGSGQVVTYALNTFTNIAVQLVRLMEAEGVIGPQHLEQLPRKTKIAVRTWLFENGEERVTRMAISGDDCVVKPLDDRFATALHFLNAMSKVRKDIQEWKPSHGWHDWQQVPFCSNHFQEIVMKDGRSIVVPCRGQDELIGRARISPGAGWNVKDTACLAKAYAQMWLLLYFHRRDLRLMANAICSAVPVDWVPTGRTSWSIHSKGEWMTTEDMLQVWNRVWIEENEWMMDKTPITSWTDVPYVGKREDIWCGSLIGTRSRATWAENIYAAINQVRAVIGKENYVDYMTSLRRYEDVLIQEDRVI
UniProt P03314, 2507-3411: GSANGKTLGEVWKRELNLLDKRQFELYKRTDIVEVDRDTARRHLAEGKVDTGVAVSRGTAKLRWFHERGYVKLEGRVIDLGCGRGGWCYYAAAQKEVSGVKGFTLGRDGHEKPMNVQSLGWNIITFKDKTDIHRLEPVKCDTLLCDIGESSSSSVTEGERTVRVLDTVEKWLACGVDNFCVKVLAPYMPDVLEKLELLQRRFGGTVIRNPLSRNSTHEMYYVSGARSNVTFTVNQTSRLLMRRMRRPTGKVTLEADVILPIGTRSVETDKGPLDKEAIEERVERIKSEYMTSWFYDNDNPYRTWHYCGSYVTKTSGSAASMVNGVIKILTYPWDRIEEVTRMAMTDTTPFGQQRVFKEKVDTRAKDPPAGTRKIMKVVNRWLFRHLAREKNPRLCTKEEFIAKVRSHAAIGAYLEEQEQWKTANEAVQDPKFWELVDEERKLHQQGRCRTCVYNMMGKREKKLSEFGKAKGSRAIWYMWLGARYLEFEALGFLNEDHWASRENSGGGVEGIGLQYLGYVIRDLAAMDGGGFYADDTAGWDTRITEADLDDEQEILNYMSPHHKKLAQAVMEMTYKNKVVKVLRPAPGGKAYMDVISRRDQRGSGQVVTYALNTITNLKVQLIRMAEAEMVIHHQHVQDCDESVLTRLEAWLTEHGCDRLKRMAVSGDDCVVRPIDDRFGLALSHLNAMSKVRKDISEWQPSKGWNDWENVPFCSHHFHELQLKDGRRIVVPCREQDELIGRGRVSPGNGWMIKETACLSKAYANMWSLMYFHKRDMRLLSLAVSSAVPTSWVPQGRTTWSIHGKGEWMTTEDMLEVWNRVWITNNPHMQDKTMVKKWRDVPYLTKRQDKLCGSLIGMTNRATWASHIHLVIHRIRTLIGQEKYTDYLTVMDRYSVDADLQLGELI

Sequence: GAUACUAAGCCAAUAAAUUGAGAGAGAUAAAUUUAU [36_vRNA_3fCESQ]
- binding result [1]: binds
- binding result [2]: binds

From publication PMC11696893
